This note sets out measurements from US20070099199A1.

Several values for one entry are separate records, joined by “and”; a condition that tells them apart may be missing. Equal values may be shown once.

The target in experiment [1] is HPV E6 #16 PDZ ligand peptide (C-terminal peptide of the E6 protein of HPV 16) (HPV 16). The experiment is described as follows: G assay ELISA, immobilised GST-PDZ, biotin peptide 10 uM. (An ELISA detects its analyte on a solid surface through an enzyme-linked reagent.)
Experiment [2] concerns the target T1, HPV16 E6 C-terminal PDZ ligand (PL) peptide, biotinylated (human papillomavirus type 16). The experiment is described as follows: G assay ELISA; immobilised GST-PDZ, biotin-peptide 10 uM.
In experiment [3] the target is T1, HPV16 E6 C-terminal PDZ ligand (PL) …. The experiment is described as follows: G assay ELISA; E6 PL peptide titrated on constant GST-PDZ.
For experiment [4] the target is unchanged. Kind of experiment: Matrix/G assay ELISA; E6 peptide titrated on GST-PDZ.

B1: GST-Shank 1 PDZ domain 1 (protein)
chain: MSPILGYWKIKGLVQPTRLLLEYLEEKYEEHLYERDEGDKWRNKKFELGLEFPNLPYYIDGDVKLTQSMAIIRYIADKHNMLGGCPKERAEISMLEGAVLDIRYGVSRIAYSKDFETLKVDFLSKLPEMLKMFEDRLCHKTYLNGDHVTHPDFMLYDALDVVLYMDPMCLDAFPKLVCFKKRIEAIPQIDKYLKSSKYIAWPLQGWQATFGGGDHPPKSDLIEGREEKTVVLQKKDNEGFGFVLRGAKADTPIEEFTPTPAFPALQYLESVDEGGVAWQAGLRTGDFLIEVNNENVVKVGHRQVVNMIRQGGNHLVLKVVTVTRNLDPDDTARKKA
In the case of B1, the OD S/N (ratio to GST-only well) in experiment [1] was 2.53. In addition, in experiment [2], the Ave OD was found to be 0.385 A450 nm and the OD S/N (ratio vs GST only) was determined as 1.71.

B2: GST-ZO-1 PDZ domain 1 (protein)
chain: MSPILGYWKIKGLVQPTRLLLEYLEEKYEEHLYERDEGDKWRNKKFELGLEFPNLPYYIDGDVKLTQSMAIIRYIADKHNMLGGCPKERAEISMLEGAVLDIRYGVSRIAYSKDFETLKVDFLSKLPEMLKMFEDRLCHKTYLNGDHVTHPDFMLYDALDVVLYMDPMCLDAFPKLVCFKKRIEAIPQIDKYLKSSKYIAWPLQGWQATFGGGDHPPKSDLIEGRIWEQHTVTLHRAPGFGFGIAISGGRDNPHFQSGETSIVISDVLKGGPAEGQLQENDRVAMVNGVSMDNVEHAFAVQQLRKSGKNAKITIRRKKKVQIPNSS
For B2, in experiment [1], the Ave OD came out at 0.521 A450 nm and the OD S/N (ratio to GST-only well) amounted to 2.83. For the same molecule, in experiment [2], the Ave OD stood at 0.412 A450 nm and the OD S/N (ratio vs GST only) is 1.83.

B3: GST-SAST1 PDZ domain, Q9Y2H9 963-1055 (protein)
chain: MSPILGYWKIKGLVQPTRLLLEYLEEKYEEHLYERDEGDKWRNKKFELGLEFPNLPYYIDGDVKLTQSMAIIRYIADKHNMLGGCPKERAEISMLEGAVLDIRYGVSRIAYSKDFETLKVDFLSKLPEMLKMFEDRLCHKTYLNGDHVTHPDFMLYDALDVVLYMDPMCLDAFPKLVCFKKRIEAIPQIDKYLKSSKYIAWPLQGWQATFGGGDHPPKSDLIEGRGLRSPITIQRSGKKYGFTLRAIRVYMGDTDVYSVHHIVWHVEEGGPAQEAGLCAGDLITHVNGEPVHGMVHPEVVELILKSGNKVAVTTTPFE
As a reminder, the EC50 is the concentration that produces a half-maximal response. Low values mean an effect from little substance, high ones a need for much substance. With B3, the EC50 in experiment [3] and in experiment [4] was 580 nM in each case.

B4: GST-KIAA0147 PDZ domain 4 (protein)
chain: MSPILGYWKIKGLVQPTRLLLEYLEEKYEEHLYERDEGDKWRNKKFELGLEFPNLPYYIDGDVKLTQSMAIIRYIADKHNMLGGCPKERAEISMLEGAVLDIRYGVSRIAYSKDFETLKVDFLSKLPEMLKMFEDRLCHKTYLNGDHVTHPDFMLYDALDVVLYMDPMCLDAFPKLVCFKKRIEAIPQIDKYLKSSKYIAWPLQGWQATFGGGDHPPKSDLIEGRRELCIQKAPGERLGISIRGGARGHAGNPRDPTDEGIFISKVSPTGAAGRDGRLRVGLRLLEVNQQSLLGLTHGEAVQLLRSVGDTLTVLVCDGFEASTDAALEVS
Regarding B4, in experiment [1], the Ave OD came out at 0.464 A450 nm and the OD S/N (ratio to GST-only well) came out at 2.17. Also, in experiment [2], the Ave OD stood at 0.38 A450 nm and the OD S/N (ratio vs GST only) was 2.34.

B5: GST-TIP1 PDZ domain 1 (protein)
chain: MSPILGYWKIKGLVQPTRLLLEYLEEKYEEHLYERDEGDKWRNKKFELGLEFPNLPYYIDGDVKLTQSMAIIRYIADKHNMLGGCPKERAEISMLEGAVLDIRYGVSRIAYSKDFETLKVDFLSKLPEMLKMFEDRLCHKTYLNGDHVTHPDFMLYDALDVVLYMDPMCLDAFPKLVCFKKRIEAIPQIDKYLKSSKYIAWPLQGWQATFGGGDHPPKSDLIEGRQRVEIHKLRQGENLILGFSIGGGIDQDPSQNPFSEDKTDKGIYVTRVSEGGPAEIAGLQIGDKIMQVNGWDMTMVTHDQARKRLTKRSEEVVRLLVTRQSLQK
On to B5, for which, in experiment [1], the OD S/N (ratio to GST-only well) is 8.24 and 5.67. In addition, the EC50 in experiment [3] amounted to 750 nM.
